Results of unrelated studies side by side (data: NIAID ChemDB).

Shared fields: target-level tests; agent: HIV-1; protein: Protease; measure: inhibition

Conditions beyond the fields shown may differ between rows.

structure | method | dose | strain | value
CC(C)C[C@H](NC(=O)[C@@H](NC(=O)CCCCCCCCCCCCCCC(=O)N[C@@H](CCC(N)=O)C(=O)N[C@@H](Cc1ccccc1)C(=O)O)C(C)O)C(=O)N[C@@H](Cc1ccccc1)C(N)=O |  | 5.5 µM |  | 35%
COc1ccc(C2C3(CO)C4N(C(=O)Oc5ccccc5)C5C2(CO)C2N(C(=O)Oc6ccccc6)C3C4(CO)C(c3ccc(OC)cc3)C52CO)cc1 |  | 50 µM |  | 18%
O=C([C@H]1O[C@H]2CN(Cc3ccccc3)C(=O)[C@@H]1O2)N1CCCCC1 | FRET | 10 µM |  | 0%
CC(=O)N[C@H](C(=O)N[C@@H](CC(C)C)C(=O)N[C@@H](CC(N)=O)C(=O)N[C@@H](Cc1ccccc1)C(N)=O)[C@@H](C)O | HPLC | 266 µg/mL |  | 12%
CCCNC(=O)N(Cc1ccccc1)CC(O)CN(Cc1ccccc1)C(=O)NCCC |  | 10 µM |  | 38%
Oc1cc(O)c2c(c1)O[C@H](c1ccc(O)c(O)c1)[C@H](O)[C@H]2c1c(O)cc(O)c2c1O[C@H](c1ccc(O)c(O)c1)[C@H](O)C2 | HPLC | 100 µg/mL | IIIB | 59%
CC(C)C[C@H](NC(=O)[C@@H](NC(=O)CCCCCCCCCCCCCCC(=O)N[C@@H](CC(N)=O)C(=O)N[C@@H](Cc1ccccc1)C(=O)O)C(C)O)C(=O)N1CCC[C@H]1C(=O)O |  | 5.5 µM |  | 15%
Oc1cc(O)c2c(c1)O[C@H](c1ccc(O)c(O)c1)[C@H](O)C2c1c(O)cc(O)c2c1O[C@H](c1cc(O)c(O)c(O)c1)[C@H](O)C2 | HPLC | 100 µg/mL | IIIB | 33.3%
COc1ccc(C2C3(CO)C4N(C(C)=O)C5C2(CO)C2N(C(C)=O)C3C4(CO)C(c3ccc(OC)cc3)C52CO)cc1 |  | 25 µM |  | 7%
CC(C)C[C@H](CO)NC(=O)[C@@H]1O[C@@H]2CN(Cc3ccccc3)C(=O)[C@H]1O2 | FRET | 10 µM |  | 0%
CC(C)(C)NC(=O)[C@H]1N(C(=O)[C@@H](O)[C@H](Cc2ccccc2)NC(=O)[C@H](CSN)NC(=O)COc2cccc(-c3ccccc3)c2)CSC1(C)C |  | 0.05 µM |  | 99.2%
CCOC(=O)[C@@]1(C)CC[C@]2(C)CC[C@]3(C)C(=CC(=O)[C@@H]4[C@@]5(C)CC/C(=N\OCc6cc(C)cc(C)c6)C(C)(C)[C@@H]5CC[C@]43C)[C@@H]2C1 | substrate cleavage / fluorescence | 1000 µg/mL |  | 2.25%
COC(=O)[C@@H](NC(=O)CCC(O)CCC(=O)N[C@H](C(=O)OC)C(C)C)C(C)C | absorbance | 10 µM |  | <10%
CCOC(=O)[C@@]1(C)CC[C@]2(C)CC[C@]3(C)C(=CC(=O)[C@@H]4[C@@]5(C)CC/C(=N\OCc6cc(Br)cc(Br)c6)C(C)(C)[C@@H]5CC[C@]43C)[C@@H]2C1 | substrate cleavage / fluorescence | 1000 µg/mL |  | 33.6%
CC(C)C[C@@H](C(=O)NCCc1ccccc1)N1C[C@@H]2O[C@H](C1=O)[C@H](C(=O)N1CCCCC1)O2 | FRET | 10 µM |  | 0%
CSCC[C@H](NC(=O)[C@H](CC(C)C)NC(=O)[C@@H](NC(=O)CCCCCCCCCCCCCCC(=O)N[C@@H](CC(N)=O)C(=O)N[C@@H](Cc1ccccc1)C(=O)O)C(C)O)C(=O)O |  | 5.5 µM |  | 15%
CO[C@@H]([C@@H](CC(C)[C@@H]1CC[C@]2(C)C3=CCC4C(C)(C)C(OC(=O)CC(C)(C)CC(=O)O)CC[C@]4(C)C3CC[C@@]12C)OC(C)(C)C)C(C)(C)O | substrate cleavage / fluorescence | 100 µg/mL |  | 48.7%
CCCCCOC(=O)[C@H](Cc1ccccc1)NC(=O)C(=O)N[C@@H](Cc1ccccc1)C(=O)OCCCCC | absorbance | 10 µM |  | <10%
CC(=O)N[C@H](C(=O)N[C@@H](CC(C)C)C(=O)N[C@@H](CC(N)=O)C(=O)N[C@@H](Cc1ccccc1)C(=O)O)[C@@H](C)O | HPLC | 800 µg/mL |  | 40%
O=C(Oc1ccccc1)N1C2C3(CO)C(c4ccccc4)C4(CO)C1C1(CO)C(c5ccccc5)C2(CO)C3N(C(=O)Oc2ccccc2)C41 |  | 25 µM |  | 17%
O=C(NCc1ccccc1)N(Cc1ccccc1)CC(O)CN(Cc1ccccc1)C(=O)NCc1ccccc1 |  | 10 µM |  | 19%
COc1ccc(C2C3(CO)C4N(C(=O)Cc5ccccc5)C5C2(CO)C2N(C(=O)Cc6ccccc6)C3C4(CO)C(c3ccc(OC)cc3)C52CO)cc1 |  | 50 µM |  | 18%
CCOC(=O)[C@@]1(C)CC[C@]2(C)CC[C@]3(C)C(=CC(=O)[C@@H]4[C@@]5(C)CC/C(=N\OCc6ccccc6F)C(C)(C)[C@@H]5CC[C@]43C)[C@@H]2C1 | substrate cleavage / fluorescence | 1000 µg/mL |  | 21.1%
CSCC[C@H](NC(=O)[C@H](Cc1cnc[nH]1)NC(C)=O)C(=O)N[C@H](C(=O)N[C@@H](CC(C)C)C(=O)N[C@@H](CC(N)=O)C(=O)N[C@@H](Cc1ccccc1)C(=O)O)[C@@H](C)O | HPLC | 266 µg/mL |  | 46%
CC(C[C@@H](O)[C@H](O)C(C)(C)O)[C@@H]1CC[C@]2(C)C3=CCC4C(C)(C)C(O)CC[C@]4(C)C3CC[C@@]12C | substrate cleavage / fluorescence | 100 µg/mL |  | 44.5%
OC[C@H]1O[C@@H](Oc2cc(O)cc(O)c2)[C@H](O)[C@@H](O)[C@@H]1O | HPLC | 100 µg/mL | IIIB | 68.2%
CC(C)(C)NC(=O)c1ccccc1C[C@@H](O)[C@H](Cc1ccccc1)NC(=O)[C@H](N)CSc1ccccc1 | fluorescence | 1 µg/mL |  | 3%
CC(C)C[C@H](NC(=O)[C@H](CC(N)=O)NC(=O)CCCCCCCCCCCCCCC(=O)N[C@@H](CC(N)=O)C(=O)N[C@@H](Cc1ccccc1)C(=O)O)C(=O)N[C@@H](Cc1ccccc1)C(N)=O |  | 5.5 µM |  | 30%
CC(=O)N[C@H](Cc1ccccc1)C(=O)N[C@@H](Cc1ccccc1)[C@H](O)Cc1ccccc1C(=O)NC(C)(C)C | fluorescence | 1 µg/mL |  | 45%
C=C(C)[C@@H]1CC[C@@]2(C)C1C1CCC3[C@@](C)(CC(=O)O)C(C(C)(C)C(=O)O)CC[C@@]3(C)[C@]1(C)C[C@@H]2O | substrate cleavage / fluorescence | 100 µg/mL |  | 59.2%
CC(C)(C)NC(=O)[C@@H]1CC2CCCCC2N1C(=O)[C@@H](O)[C@H](Cc1ccccc1)NC(=O)[C@H](CS(C)(=O)=O)NC(=O)COc1cccc2ccccc12 |  | 0.05 µM |  | 2.5%
CC(C)COC(=O)C(Cc1cccc(F)c1)NC(=O)C(=O)NC(Cc1cccc(F)c1)C(=O)OCC(C)C | absorbance | 10 µM |  | 24%
CC[C@H](C)[C@H](NC(=O)[C@@H]1CCCN1C(=O)[C@H](O)[C@H](CC1CCCCC1)NC(=O)[C@H](CC(N)=O)NC(=O)CCc1ccccc1)C(=O)N[C@H](C(N)=O)C(C)C |  | 5 µM |  | 18.7%
O=C(O)[C@@H]1O[C@@H](Oc2cc3oc(-c4ccc(O)cc4)cc(=O)c3c(O)c2O)[C@@H](O)[C@H](O)[C@H]1O | substrate cleavage / fluorescence | 1000 µg/mL |  | 56.2%
OC(CCc1ccccc1)c1cnc2sc3c(n12)CCCCC3 | fluorescence | 3.3 µM |  | 94%
COc1cc(O)cc2c1C[C@@H](O)[C@@H](c1cc(O)c(OC)c(O)c1)O2 | HPLC | 100 µg/mL | IIIB | 34.6%
CC(O)[C@H](NC(=O)CCCCCCCCCCCCCCC(=O)N[C@@H](CC(N)=O)C(=O)N[C@@H](Cc1ccccc1)C(=O)O)C(=O)N1CCC[C@H]1C(=O)N[C@@H](Cc1ccccc1)C(N)=O |  | 5.5 µM |  | 15%
O=C(/C=C/c1ccc(O)cc1)C1=C(O)/C(=C/c2ccc(O)cc2)CCC1 | fluorescence | 10 µM |  | 55.5%
O=C(CCC(=O)N[C@@H](Cc1ccccc1)C(=O)OCc1ccccc1)CCC(=O)N[C@@H](Cc1ccccc1)C(=O)OCc1ccccc1 | absorbance | 10 µM |  | <10%
CC(C)C[C@H](NC(=O)[C@@H]1CCCN1C(=O)CCCCCCCCCCCCCCC(=O)N[C@@H](CC(N)=O)C(=O)N[C@@H](Cc1ccccc1)C(=O)O)C(=O)N[C@@H](Cc1ccccc1)C(N)=O |  | 5.5 µM |  | 50%
CC(C)(C)NC(=O)c1ccccc1C[C@@H](O)[C@H](Cc1ccccc1)NC(=O)[C@H](CC(=O)OCc1ccccc1)NC(=O)C(F)(F)F | fluorescence | 0.02 µg/mL |  | 52%
CO[C@@H]([C@@H](CC(C)[C@@H]1CC[C@]2(C)C3=CCC4C(C)(C)C(OC(=O)CCC(=O)O)CC[C@]4(C)C3CC[C@@]12C)OC(C)(C)C)C(C)(C)O | substrate cleavage / fluorescence | 100 µg/mL |  | 51.2%
CC(C)CCNC(=O)[C@@H]1O[C@H]2O[C@@H]1C(=O)N(Cc1ccccc1)[C@H]2Cc1ccccc1 | FRET | 1 µM |  | 0%
COc1c(O)cc2oc(-c3ccc(O)cc3)cc(=O)c2c1O | substrate cleavage / fluorescence | 1000 µg/mL |  | 86%
O=C(Cc1ccccc1)N1C2C3(CO)C(c4ccccc4)C4(CO)C1C1(CO)C(c5ccccc5)C2(CO)C3N(C(=O)Cc2ccccc2)C41 |  | 50 µM |  | 52%
Cn1ccc2c(C(=O)N[C@@H](CSc3ccc4ccccc4c3)[C@H](O)Cc3ccccc3C(=O)NC(C)(C)C)cccc21 | fluorescence | 15 µg/mL |  | 35%
CC(C)(C)NC(=O)N(Cc1ccccc1O)CC(O)CN(Cc1ccccc1O)C(=O)NC(C)(C)C |  | 10 µM |  | 11%
OC(CCc1ccco1)c1cnc2sc3c(n12)CCCCC3 | fluorescence | 10 µM |  | 92%
CC(C)[C@H](N)C(=O)N[C@H](C(=O)N[C@@H](Cc1ccccc1)[C@H](O)C(=O)N[C@@H](Cc1ccccc1)C(=O)N[C@H](C(=O)N[C@H](C(N)=O)C(C)C)C(C)C)C(C)C |  | 5 µM |  | 67.9%
CCOC(=O)[C@@]1(C)CC[C@]2(C)CC[C@]3(C)C(=CC(=O)[C@@H]4[C@@]5(C)CC/C(=N\OCc6cccc(C)c6)C(C)(C)[C@@H]5CC[C@]43C)[C@@H]2C1 | substrate cleavage / fluorescence | 1000 µg/mL |  | 4.51%
OC(CCc1ccc2ccccc2c1)c1cnc2sc3c(n12)CCCCC3 | fluorescence | 10 µM |  | 94%
CC(C)(C)NC(=O)N(Cc1cccc(O)c1)CC(O)CN(Cc1cccc(O)c1)C(=O)NC(C)(C)C |  | 10 µM |  | 67%
CC(C)(C)NC(=O)c1ccccc1C[C@@H](O)[C@H](Cc1ccccc1)NC(=O)[C@H](N)COCc1ccccc1 | fluorescence | 1 µg/mL |  | 5%
CN(C)c1ccc(CCC(O)c2cnc3sc4c(n23)CCCCC4)cc1 | fluorescence | 10 µM |  | 94%
O=C1CC(c2ccc(O)cc2)Oc2cc(O)cc(O)c21 | substrate cleavage / fluorescence | 1000 µg/mL |  | 89.3%
CCOC(=O)[C@@]1(C)CC[C@]2(C)CC[C@]3(C)C(=CC(=O)[C@@H]4[C@@]5(C)CC/C(=N\OCc6cccc(F)c6)C(C)(C)[C@@H]5CC[C@]43C)[C@@H]2C1 | substrate cleavage / fluorescence | 1000 µg/mL |  | 12.5%
CC(C)C[C@H](NC(=O)[C@H](CC(C)C)NC(=O)[C@@H](NC(=O)CCCCCCCCCCCCCCC(=O)N[C@@H](CC(N)=O)C(=O)N[C@@H](Cc1ccccc1)C(=O)O)C(C)O)C(=O)O |  | 5.5 µM |  | 25%
N[C@@H](CO)C(=O)N[C@@H](Cc1ccccc1)[C@@H](O)C(=O)NCC1CCCCC1 |  | 1000 µM |  | 10.3%
OC(CCc1ccccc1)c1cnc2sc3c(n12)CCC3 | fluorescence | 3.3 µM |  | 85%
CC(C)C[C@H](NC(=O)[C@@H](N)[C@@H](C)O)C(=O)N[C@@H](CC(N)=O)C(=O)N[C@@H](Cc1ccccc1)C(N)=O | HPLC | 266 µg/mL |  | 5%

Repeating the first 8 entries:

structure	method	dose	strain	value
CC(C)C[C@H](NC(=O)[C@@H](NC(=O)CCCCCCCCCCCCCCC(=O)N[C@@H](CCC(N)=O)C(=O)N[C@@H](Cc1ccccc1)C(=O)O)C(C)O)C(=O)N[C@@H](Cc1ccccc1)C(N)=O		5.5 µM		35%
COc1ccc(C2C3(CO)C4N(C(=O)Oc5ccccc5)C5C2(CO)C2N(C(=O)Oc6ccccc6)C3C4(CO)C(c3ccc(OC)cc3)C52CO)cc1		50 µM		18%
O=C([C@H]1O[C@H]2CN(Cc3ccccc3)C(=O)[C@@H]1O2)N1CCCCC1	FRET	10 µM		0%
CC(=O)N[C@H](C(=O)N[C@@H](CC(C)C)C(=O)N[C@@H](CC(N)=O)C(=O)N[C@@H](Cc1ccccc1)C(N)=O)[C@@H](C)O	HPLC	266 µg/mL		12%
CCCNC(=O)N(Cc1ccccc1)CC(O)CN(Cc1ccccc1)C(=O)NCCC		10 µM		38%
Oc1cc(O)c2c(c1)O[C@H](c1ccc(O)c(O)c1)[C@H](O)[C@H]2c1c(O)cc(O)c2c1O[C@H](c1ccc(O)c(O)c1)[C@H](O)C2	HPLC	100 µg/mL	IIIB	59%
CC(C)C[C@H](NC(=O)[C@@H](NC(=O)CCCCCCCCCCCCCCC(=O)N[C@@H](CC(N)=O)C(=O)N[C@@H](Cc1ccccc1)C(=O)O)C(C)O)C(=O)N1CCC[C@H]1C(=O)O		5.5 µM		15%
Oc1cc(O)c2c(c1)O[C@H](c1ccc(O)c(O)c1)[C@H](O)C2c1c(O)cc(O)c2c1O[C@H](c1cc(O)c(O)c(O)c1)[C@H](O)C2	HPLC	100 µg/mL	IIIB	33.3%

Blank or dashed fields: not listed here. Inhibition is in % at the dose shown (toxicity tests: loss of growth or viability).